Assay results reported in patent publication US20110076298A1, “Soluble stabilized trimeric hiv env proteins and uses thereof” (priority 2006, published 2011).

Assay: Extent of SOSIP gp140 cleavage by reduced SDS-PAGE

KNH1144 SOSIP gp140: soluble, disulfide-stabilized, I571P-modified cleaved trimeric gp140 of HIV-1 subtype A KNH1144
extent of SOSIP gp140 cleavage with Furin co-expressed (Furin co-expression): 87% | extent of SOSIP gp140 cleavage with Hex-Arg (R6) motif (R6 substitution, no Furin): 77% | extent of SOSIP gp140 cleavage (no Furin, no R6 motif, gp120 as % of total Env): 46%
